Measurements from publication PMC8092284.
The exact form of at least one protein or probe is not confirmed.

System: ChiS DBD (ChiS1024-1129) (Vibrio cholerae)
Assay: EMSA
Details: 0-400 nM protein; recombinant protein; label: Cy5 (Cy5-dCTP by PCR per Methods, 1-2 per probe)

“GGTATTTTGACGTTAATGACGTAGGGCATCTAGGTTTTGACGTTTTTAACGGGAATTGCA (double strand) [Pchb WT 60 bp]”: binds.
